From paper PMC4369403 come the findings set out here.

Series [1] deals with Nc1ncnc2c1ncn2[C@@H]1O[C@H](COP(=O)(O)O)[C@@H](O)[C@H]1O. As to the kind of experiment: purified protein.
Series [2] has as its system CC(C)=CCNc1ncnc2c1ncn2[C@@H]1O[C@H](COP(=O)(O)O)[C@@H](O)[C@H]1O. Description: purified protein.

Usually Km stands for the concentration of substrate that gives half-maximal velocity. Regarding “Rv1205 (Log; Rv1205-His6) (Mycobacterium tuberculosis H37Rv)”, the Km in series [1] was 73.1 µM; in series [2], 5.6 µM.
